Anti-infective test results gathered from many reports (values: NIAID ChemDB through PubChem).

Common to all: toxicity to cultured cells; cells: HEL; read-out: CC50

Blank or dashed fields: not listed here.

structure	method	value
Cc1ccc(-c2cc3cn([C@H]4C[C@H](O)[C@@H](CO)O4)c(=O)nc3o2)cc1	-	>200 µM
Cc1cn([C@@H]2OC3COC(=O)C3(OS(C)(=O)=O)C2O)c(=O)[nH]c1=O	-	36 µM
CC(C)(C)OC(=O)[C@]1(Cc2ccccc2)CC(=O)N1C(=O)Nc1ccccc1	-	118 µM
C#CCCCCCCc1cc2cn([C@H]3C[C@H](O)[C@@H](CO)O3)c(=O)nc2o1	-	>200 µM
COc1ccc(C)cc1CS(=O)(=O)c1cccc[n+]1[O-]	-	43 µg/mL
O=c1nc2oc(-c3ccccc3)cc2cn1[C@H]1C[C@H](O)[C@@H](CO)O1	-	>200 µM
Cc1ccn2c(CSCc3ccccc3)c(-c3ccccc3)nc2c1	-	>50 µg/mL
Nc1ccn(C[C@@H](CO)OCP(=O)(O)O)c(=O)n1	-	200 µg/mL
COc1cccc(-c2cc(C)cn3c(CSCCc4ccccc4)cnc23)c1	-	>50 µg/mL
O=[N+]([O-])c1cc(CS(=O)(=O)c2cccc[n+]2[O-])cc([N+](=O)[O-])c1	-	4.4 µg/mL
Cc1ccn2c(CSCc3ccccc3Cl)cnc2c1	-	18 µg/mL
COc1ccc(Br)c(CS(=O)(=O)c2cccc[n+]2[O-])c1	-	15 µg/mL
C=CCCCc1cc2cn([C@H]3C[C@H](O)[C@@H](CO)O3)c(=O)nc2o1	-	>200 µM
Cc1c(O)c(=O)ccn1[C@H]1CC[C@@H](CO)O1	-	>900 µM
Cc1ccc(C)c(C(Cl)S(=O)(=O)c2c(C)ccc[n+]2[O-])c1	-	>100 µg/mL
C#CCCCCc1cc2cn([C@H]3C[C@H](O)[C@@H](CO)O3)c(=O)nc2o1	-	>200 µM
COC(=O)[C@H](C)NP(=O)(OC[C@H]1O[C@@H](n2cc(/C=C/Br)c(=O)[nH]c2=O)C[C@@H]1O)Oc1ccc(Cl)cc1	-	74 µM
COc1ccc(CS(=O)(=O)c2cc(C(C)(C)C)cc[n+]2[O-])cc1	-	38 µg/mL
OCCOCc1c(-c2ccccc2)nc2ccccn12	-	135 µg/mL
CCCCCCc1cc2cn([C@H]3CC[C@@H](CO)O3)c(=O)nc2o1	-	143 µM
Nc1nc2c(ncn2CCCCO)c(=O)[nH]1	-	400 µM
O=c1[nH]c(=O)n([C@H]2C[C@H](O)[C@@H](CO)O2)cc1-c1ccc(Cl)o1	-	105 µg/mL
CCCCC#Cc1c[nH]c(=O)[nH]c1=O	-	200 µM
Nc1nccc2c1ncn2C[C@@H](CO)OCP(=O)(O)O	-	9 µg/mL
O=c1[nH]c(=O)n([C@H]2C[C@H](O)[C@@H](CO)O2)cc1-c1ccco1	-	100 µg/mL
Nc1ccn(C[C@H]2COP(=O)(O)CO2)c(=O)n1	-	>200 µg/mL
CC(C)C[C@H](NC(=O)n1nnc2ccccc21)C(=O)NC(c1ccccc1)c1ccccc1	-	40 µg/mL
CON=C[C@H]1O[C@@H](n2cnc3c(N)ncnc32)[C@H](O)[C@@H]1O	-	>50 µg/mL
Cc1ccc2ncc(CSCc3ccccc3)n2c1	-	23 µg/mL
O=c1[nH]c(=O)n([C@H]2C[C@H](O)[C@@H](CO)O2)cc1/C=C/Br	-	>601 µM
Cc1cc(I)cn2c(CSCCc3ccccc3)cnc12	-	>50 µg/mL
Nc1ncnc2c1ncn2[C@H]1C[C@H](O)[C@@H](C=O)O1	-	>50 µg/mL
O=C1NC(c2ccccc2)C(=O)N1C1CCCC1	MTT	27.4 µg/mL
Cc1cc(-c2ccc(C#N)cc2)cn2c(CSCCc3ccccc3)cnc12	-	10.6 µg/mL
COc1cc(/C=C/C(=O)CC(=O)/C=C/c2ccc(OCCOC(=O)CCC(NC(=O)c3ccc(NCc4cnc5nc(N)[nH]c(=O)c5n4)cc3)C(=O)O)c(OC)c2)ccc1O	MTS / tetrazolium / absorbance	>0.0119 µM
Nc1ncnc2c1ncn2[C@@H]1C[C@@H](O)[C@@H](O)[C@H]1O	-	115 µg/mL
CC1(C)c2ccccc2N(c2ccccc2)C12C=Nc1c(ccc3ccccc13)O2	-	96.3 µM
Nc1nc2c(ncn2CC(CO)OCP(=O)(O)O)c(=O)[nH]1	-	10 µg/mL
Nc1nc2c(ncn2COCCO)c(=O)[nH]1	-	>400 µM
O=c1[nH]c(=O)n([C@H]2C[C@H](O)[C@@H](CO)O2)cc1-c1ccc(Br)o1	-	125 µg/mL
C=CCCCCCCc1cc2cn([C@H]3C[C@H](O)[C@@H](CO)O3)c(=O)nc2o1	-	>200 µM
CCOc1cccnc1SCc1ccccc1	-	>20 µg/mL
CCCCCCCCc1cc2cn([C@H]3C[C@H](O)[C@@H](CO)O3)c(=O)nc2o1	-	≥50 µM
O=S(=O)(Cc1cccc(F)c1)c1cccc[n+]1[O-]	-	19 µg/mL
Nc1ncnc2c1ncn2C[C@@H](CO)OCP(=O)(O)O	-	20 µg/mL
O=[N+]([O-])c1cc(CS(=O)(=O)c2cccc[n+]2[O-])ccc1Cl	-	4.3 µg/mL
CN1c2ccc(Cl)cc2C(C)(C)C12C=Cc1c(ccc3ccccc13)O2	-	119.2 µM
O=S(=O)(Cc1ccccc1)c1ccccn1	-	68 µg/mL
Nc1nc2c(ncn2COCCO)c(=O)[nH]1	-	888 µM
O=c1nc2oc(CCCCCCCCCCl)cc2cn1[C@H]1C[C@H](O)[C@@H](CO)O1	-	200 µM
CCCCCCCCCCc1cc2cn([C@H]3C[C@H](O)[C@@H](CO)O3)c(=O)nc2o1	-	>50 µM
Cc1ccc(C)c(CS(=O)c2cccc[n+]2[O-])c1C	-	1.2 µg/mL
C[C@H]1O[C@@H](c2n[nH]c(C(N)=O)c2O)[C@H](O)[C@@H]1O	-	>50 µg/mL
COC(=O)[C@@H](C)NC(=O)C1(Cc2ccccc2)CCN1C(=O)OCc1ccccc1	-	33 µM
FC(F)(F)c1cc(Cl)c2ncc(CSCc3ccccc3)n2c1	-	40 µg/mL
CN1CCCC1C12CC3CC(CC(C3)C1)C2	-	>50 µg/mL
Cc1cc(-c2cccc(F)c2)c2ncc(CSCCc3ccccc3)n2c1	-	35 µg/mL
CC(C)(C)C1CCCN1CC12CC3CC(CC(C3)C1)C2	-	>50 µg/mL
Cc1cc(-c2cccc([N+](=O)[O-])c2)c2ncc(CSCCc3ccccc3)n2c1	-	47 µg/mL
Nc1ncnc2c1ncn2[C@@H]1O[C@H](C=O)[C@@H](O)[C@H]1O	-	>50 µg/mL
C#CCCCCc1cc2cn([C@H]3C[C@H](O)[C@@H](CO)O3)c(=O)nc2o1	-	>200 µM
CCCCCCC#Cc1cn(S(=O)(=O)c2ccc(C)cc2)c(=O)[nH]c1=O	-	63 µM
Cc1ccn2c(CSCc3ccccc3)c(C(C)(C)C)nc2c1	-	11 µg/mL
CCCCCCCCc1cc2cnc(=O)[nH]c2o1	-	>200 µM
CCCCCCCCCCc1cc2cn([C@H]3C[C@H](O)[C@@H](CO)O3)c(=O)nc2n1CCC	-	47 µM
[O-][n+]1cccc(Cl)c1SCc1ccccc1	-	>100 µg/mL
Nc1ncnc2c1ncn2[C@@H]1O[C@H](C=O)C[C@H]1O	-	>50 µg/mL
Cc1c(Br)cc(Br)c2ncc(CSCc3ccccc3)n12	-	>50 µg/mL
Cc1ccc[n+]([O-])c1SCc1c(Cl)cccc1Cl	-	31 µg/mL
CC(C)C[C@H](NC(=O)n1nnc2ccccc21)C(=O)NC1CCCCC1	-	76 µg/mL
Nc1ccn(C[C@@H](CO)OCP(=O)(O)O)c(=O)n1	-	100 µg/mL
CC(C)[C@H](NC(=O)n1nnc2ccccc21)C(=O)NC1CCCC1	-	>200 µg/mL
C#CCCCCCCc1cc2cn([C@H]3C[C@H](O)[C@@H](CO)O3)c(=O)nc2o1	-	>200 µM
Cc1cc(-c2ccc(O)cc2)c2ncc(CSCCc3ccccc3)n2c1	-	13.7 µg/mL
Cc1ccccc1CS(=O)c1cccc[n+]1[O-]	-	52 µg/mL
CCCCCCc1cc2cn([C@H]3C[C@H](O)[C@@H](CO)O3)c(=O)nc2[nH]1	-	>50 µM
Cc1cc(-c2ccccc2O)cn2c(CSCCc3ccccc3)cnc12	-	>50 µg/mL
O=C1OC(C(O)Cn2cc(F)c(=O)[nH]c2=O)C(OCc2ccccc2)=C1OCc1ccccc1	-	33.4 µg/mL
C1CCC2(CC1)CCCN2CC12CC3CC(CC(C3)C1)C2	-	>50 µg/mL
Cc1nc2ccccn2c1NC(=O)c1ccccc1	-	>50 µg/mL
Cc1cn([C@@H]2O[C@H](CO)[C@@H](O)[C@@H]2F)c(=O)[nH]c1=O	-	1 µg/mL
COc1ccc(CS(=O)(=O)c2cccc[n+]2[O-])cc1OC	-	41 µg/mL
CCCCCCCC/C=C/CCCCCCCC(=O)O	-	150 µM
CCCCCCCc1cc2cnc(=O)[nH]c2o1	-	>200 µM
O=S(Cc1ccccc1)c1cccc[n+]1[O-]	-	>50 µg/mL
O=c1[nH]c(=O)n([C@H]2C[C@H](O)[C@@H](CO)O2)cc1C#CCCCCCCCCCCl	-	74 µM
CCCCCCCCCCc1cc2cn([C@H]3C[C@H](O)[C@@H](CO)O3)c(=O)nc2o1	-	>50 µM
Cc1ccc(C)c(CSc2c(O)ccc[n+]2[O-])c1	-	7.7 µg/mL
C=CCCCCCCCCc1cc2cn([C@H]3C[C@H](O)[C@@H](CO)O3)c(=O)nc2o1	-	>200 µM
O=S(=O)(Cc1ccc(-c2ccccc2)cc1)c1cccc[n+]1[O-]	-	4.6 µg/mL
O=c1nc2oc(CCCCCCCCCOCCCCCl)cc2cn1[C@H]1C[C@H](O)[C@@H](CO)O1	-	>200 µM
O=C(CC1CCCCC1)N(O)c1ccc(Cl)cc1	-	129 µg/mL
Cc1ccc(C)c(C(C)S(=O)(=O)c2cc(C)cc[n+]2[O-])c1	-	25 µg/mL
CCC(C)C1NC(=O)N(CC2CCCCC2)C1=O	MTT	50 µg/mL
Cc1ccn2c(CSCc3ccccc3)cnc2c1	-	45 µg/mL
Nc1ncnc2c1ncn2C[C@H]1COP(=O)(O)CO1	-	40 µg/mL
Nc1ncnc2c1ncn2[C@@H]1O[C@H](C=NO)[C@@H](O)[C@H]1O	-	0.7 µg/mL
COc1ccc(OC)c(CS(=O)c2cccc[n+]2[O-])c1	-	≥100 µg/mL
Cc1c(O)c(=O)ccn1[C@@H]1CS[C@@H](CO)O1	-	>400 µM
O=c1nc2oc(CCCCCCCCCBr)cc2cn1[C@H]1C[C@H](O)[C@@H](CO)O1	-	>50 µM
C1CCC2(C1)CCCN2CC12CC3CC(CC(C3)C1)C2	-	200 µg/mL
CCCCCc1cc2cn([C@H]3C[C@H](O)[C@@H](CO)O3)c(=O)nc2o1	-	>50 µM
CCCCCCCCCCCCc1cc2cn([C@H]3C[C@H](O)[C@@H](CO)O3)c(=O)nc2o1	-	>200 µM
O=C1O/C(=C\Cn2ccc(=O)[nH]c2=O)C(O)=C1O	-	>50 µg/mL
Nc1nc2c(ncn2COC(CO)CO)c(=O)[nH]1	-	674.2 µM
CCCCCCCCc1cc2cn([C@H]3C[C@H](O)[C@@H](CO)O3)c(=O)nc2[nH]1	-	>50 µM
COC(=O)[C@H](C)NP(=O)(OC[C@H]1O[C@@H](n2cc(/C=C/Br)c(=O)[nH]c2=O)C[C@@H]1O)Oc1ccccc1	-	>200 µM
C[C@@H](NC(=O)N1C(=O)C[C@]1(Cc1ccccc1)C(=O)O)c1ccccc1	-	>200 µM
COc1ccc2c(c1)OC1(C=C2)N(C)c2ccccc2C1(C)C	-	18.9 µM
CC(C)CS[C@@H]1C[C@H](n2cnc3c(N)ncnc32)[C@@H](O)[C@H]1O	-	>200 µg/mL
Cc1ccn2c(CSCc3ccccc3)c(-c3cccs3)nc2c1	-	14 µg/mL

Repeating the final 14 entries:

structure | method | value
COc1ccc(OC)c(CS(=O)c2cccc[n+]2[O-])c1 | - | ≥100 µg/mL
Cc1c(O)c(=O)ccn1[C@@H]1CS[C@@H](CO)O1 | - | >400 µM
O=c1nc2oc(CCCCCCCCCBr)cc2cn1[C@H]1C[C@H](O)[C@@H](CO)O1 | - | >50 µM
C1CCC2(C1)CCCN2CC12CC3CC(CC(C3)C1)C2 | - | 200 µg/mL
CCCCCc1cc2cn([C@H]3C[C@H](O)[C@@H](CO)O3)c(=O)nc2o1 | - | >50 µM
CCCCCCCCCCCCc1cc2cn([C@H]3C[C@H](O)[C@@H](CO)O3)c(=O)nc2o1 | - | >200 µM
O=C1O/C(=C\Cn2ccc(=O)[nH]c2=O)C(O)=C1O | - | >50 µg/mL
Nc1nc2c(ncn2COC(CO)CO)c(=O)[nH]1 | - | 674.2 µM
CCCCCCCCc1cc2cn([C@H]3C[C@H](O)[C@@H](CO)O3)c(=O)nc2[nH]1 | - | >50 µM
COC(=O)[C@H](C)NP(=O)(OC[C@H]1O[C@@H](n2cc(/C=C/Br)c(=O)[nH]c2=O)C[C@@H]1O)Oc1ccccc1 | - | >200 µM
C[C@@H](NC(=O)N1C(=O)C[C@]1(Cc1ccccc1)C(=O)O)c1ccccc1 | - | >200 µM
COc1ccc2c(c1)OC1(C=C2)N(C)c2ccccc2C1(C)C | - | 18.9 µM
CC(C)CS[C@@H]1C[C@H](n2cnc3c(N)ncnc32)[C@@H](O)[C@H]1O | - | >200 µg/mL
Cc1ccn2c(CSCc3ccccc3)c(-c3cccs3)nc2c1 | - | 14 µg/mL

Neighbouring rows are from separate reports. CCn is the concentration with n% toxicity to the cells.